A mixed list of measured activities; the numbers were collected in NIAID ChemDB.

All rows: tests in culture; species: Herpes simplex virus 1; measure: MIC

a–b is a range or a potency band.

| compound | strain | result |
|---|---|---|
| O=c1[nH]c(=O)n([C@@H]2O[C@H](CO)[C@@H](O)[C@@H]2O)cc1/C=C/Br | - | 0.032 µg/mL |
| Cc1nc(CC(=O)NN)nn1C | TK (KOS ACV) | >400 µg/mL |
| O=c1ccn([C@@H]2O[C@H](CO)[C@@H](O)[C@@H]2F)c(=O)[nH]1 | - | 0.035 µM |
| CSc1ncnc2c1ncn2[C@@H]1OC2COP(=O)(O)OC2[C@H]1O | HF | 3.2 µg/mL |
| O=c1ccn([C@@H]2O[C@H](CO)[C@@H](O)[C@H]2O)c(=O)[nH]1 | VR-3 | 100 µg/mL |
| COc1ccc(-n2c(Cc3nc4n(n3)CCCC4)n[nH]c2=S)cc1 | TK (KOS ACV) | 80 µg/mL |
| O=c1[nH]c(=O)n([C@@H]2O[C@H](CO)[C@@H](O)[C@@H]2F)cc1/C=C/Br | - | 0.4 µM |
| Nc1ccn([C@@H]2O[C@H](CO)[C@@H](O)[C@@H]2O)c(=O)n1 | KET | 1.1–2.2 µg/mL |
| O=P1(O)OCC2O[C@@H](n3cnc4c(SCc5ccccc5)ncnc43)[C@H](O)C2O1 | HF | 3.2 µg/mL |
| CCc1nc(CC(=O)NN=C(C)C)nn1CC | TK (KOS ACV) | >400 µg/mL |
| O=c1[nH]c(=O)n([C@@H]2O[C@H](CO)[C@@H](O)[C@@H]2F)cc1I | - | 0.025 µM |
| Nc1ncnc2c1ncn2[C@@H]1C=C[C@@H](O)[C@H]1O | KOS | 150 µg/mL |
| CCn1nc(CC(=O)N/N=C/c2ccco2)nc1C | KOS | >400 µg/mL |
| Nc1ccn(C[C@@H](CO)OCP(=O)(O)O)c(=O)n1 | TK- | 2 µg/mL |
| O=c1[nH]c(=O)n([C@H]2C[C@H](O)[C@@H](CO)O2)cc1I | VR-3 | 3.2 µg/mL |
| Nc1nccc2c1ncn2[C@@H]1CC[C@@H](O)[C@H]1O | KOS | >400 µg/mL |
| C=Cc1cn([C@@H]2O[C@H](CO)[C@@H](O)[C@@H]2O)c(=O)[nH]c1=O | - | 0.32 µg/mL |
| Cc1cn([C@@H]2O[C@H](CO)[C@@H](O)[C@@H]2Cl)c(=O)nc1N | - | 0.64 µM |
| Nc1ncnc2c1ncn2[C@@H]1C[C@H](CO)[C@@H](O)[C@@H]1O | VR-3 | 10 µg/mL |
| Nc1ncnc2c1ncn2C[C@@H](CO)OCP(=O)(O)O | TK- | 2 µg/mL |
| Cc1cn([C@@H]2O[C@H](CO)[C@@H](O)[C@@H]2O)c(=O)[nH]c1=O | WT-34 | 1 µg/mL |
| NNC(=O)Cc1nc2n(n1)CCCCC2 | KOS | >400 µg/mL |
| O=c1[nH]c(=O)n([C@H]2C[C@H](O)[C@@H](CO)O2)cc1/C=C/Br | - | 0.032 µg/mL |
| CCSC1NN=C(Cc2nc(C)n(C)n2)N1c1ccccc1 | KOS | 400 µg/mL |
| Nc1nc(=O)n([C@@H]2O[C@H](CO)[C@@H](O)[C@@H]2F)cc1I | - | 0.01 µM |
| CCn1nc(Cc2n[nH]c(=S)o2)nc1C | KOS | >400 µg/mL |
| Nc1nccc2c1ncn2[C@@H]1C=C(CO)[C@@H](O)[C@H]1O | KOS | >400 µg/mL |

The last 3 rows once more:

compound	strain	result
Nc1nc(=O)n([C@@H]2O[C@H](CO)[C@@H](O)[C@@H]2F)cc1I	-	0.01 µM
CCn1nc(Cc2n[nH]c(=S)o2)nc1C	KOS	>400 µg/mL
Nc1nccc2c1ncn2[C@@H]1C=C(CO)[C@@H](O)[C@H]1O	KOS	>400 µg/mL

Blank or dashed fields: not listed here. Lines come from different laboratories, so protocols vary.